Where “and” joins values, the source holds several entries; their conditions need not be identical. Equal values may be shown once.
How the values were obtained:
[1] = target: NA of clade 1.1 HPAI A(H5N1) viruses (Influenza A virus, UniProt Q6DPL2)
[2] = target: NA of clade 2.3.4 HPAI A(H5N1) viruses (Influenza A virus, UniProt I6PZ30)
[3] = target: NA of 2.3.4/R reassortant HPAI A(H5N1) viruses (NA genes grouped with clade 2.3.2.1) (Influenza A virus, UniProt A0A0C5AM80)
[4] = target: NA of A/Vietnam/1203/2004, clade 1 (Influenza A virus, UniProt Q6DPL2)
[5] = target: NA of A/North Carolina/39/2009 (H275Y) (Influenza A virus, UniProt C3W6G3, H275Y)
[6] = target: NA of A/California/07/2009 (Influenza A virus (A/California/07/2009(H1N1)), UniProt C3W6G3)
[7] = test system: A/dk/VN/NCVD-680/2011 (wildtype NA) in MDCK-SIAT1 cells

peramivir was tested, and the IC50 [1] was 0.07 nM to 0.31 nM (2×) and 0.13 nM and 0.14 nM, the IC50 [2] was 0.16 nM to 0.52 nM (2×) and 0.29 nM and 0.31 nM and the IC50 [3] was 0.28 nM to 0.39 nM (2×) and 0.33 nM. It also gave an IC50 [4] of 0.17 nM, an IC50 [5] of 16.8 nM and an IC50 [6] of 0.05 nM.

Compound `NC(=O)c1nc(F)c[nH]c1=O` has an EC90 [7] of 3200 nM.
